US20150086555A1 (THERACLONE SCIENCES, published 2015)

Molecular target: hemagglutinin on whole inactivated influenza A virions, A/Japan/305/57 H2N2 (Influenza A virus A/Japan/305/1957(H2N2))

Row | Binder | ELISA: Virus Binding (OD450)
1 | TCN-551 (5243_D01) (antibody, V domains shown) VH: EVQLVQSGSEVKKPGESLKISCKGSGYSFSNYWIGWVRHMPGKGLEWMGIIYPGDSDTRYSPSFQGQVTMSADKSSSTVYLQWSSLKASDTAIYYCARRGGHSFGYGSGGDTHSEFDSWGQGTLVTVSS VL: QSVLTQSPSVSAAPGQKVTISCSGSDSNIGDYFVCWYQHLPGKPPQLLIYENNKRPSGIPDRFSGSKSGTSATLGITGIQTGDEADYYCATWDGSLSAWVFGGGTKLTVL | 0.06
2 | TCN-552 (5249_I23) (antibody, V domains shown) VH: QVQVVQSGAEVKKPGSSVRVSCQASGGTFMNYAIIWVRRAPGQGLEWMGGIIPVFPTPNYAQMFQGRVTISTDESRSTSFLELTNLRYEDTAVYYCARRIYHGGNSGFDFWGQGTLVTVSS VL: EIVLTQSPATLSLSPGERATLSCRASQSVGNYLAWYQQKPGQAPRLLIYDSSNRAPGIPARFSGSGSGTDFTLTISSLAPEDFAVYYCQQRSKWPPMYSFGHGTKLEIK | 3.41
3 | TCN-553 (5261_C18) (antibody, V domains shown) VH: QVQVVQSGTEVKKPGSSVKVSCQTSGGRFMSYAITWVRQAPGQGLEWMGGIVPVFGTANYAQKFQGRVTITTDDSTRTAYMELSSLRSEDTAVYYCGFRYGSGYGFDSWGQGTLVTVSS VL: EIVLTQSPGTLSLSPGERATLSCRASQSVSSSYLAWYQKKPGQAPRLLIYGASTRATGIPDRFTGSGSGTDFTLSISRLEPEDFAVYYCQHFGTSVFTFGGGTKVEIK | 3.49
4 | TCN-554 (5277_M05) (antibody, V domains shown) VH: QVQLVQSGADLKKPGASVKVSCKASGYTFTDYYIHWVRQAPGQGLEWMGWINPESGDTKYAQKFQGRVTMTRDTSITTAYMELGRLRSDDTAVYYCARDVSTTWSWFAPWGQGTLVTVSS VL: DIVMTQSPDSLAVSLGERATINCRSSQSIFHNSNNENYLAWYQQKPGQPPKLLIYWASTRESGVPDRFSGSGSGTDFTLTISSLQAEDVAVYFCQQYYNAPLTFGGGTKVEIK | 0.07
5 | TCN-555 (5246_L16) (antibody, V domains shown) VH: QVQLVQSGAEVKRPGSSVKVSCTASGGIFRKNAISWVRQAPGQGLEWMGGIIAVFNTANYAQKFQNRVKITADESGNTAYMELSSLTSDDTAVYYCASHPKYFYGSGSYPDFWGQGTLVTVSS VL: QSALTQPRSVSGSPGQSITISCTGGSSDIGASNSVSWYQQHPGKAPKLVIFDVTERPSGVPHRFSGSKSGNTASLTVSGLQPDDEADYFCCAYGGKYLVVFGGGTKVTVL | 3.4
6 | TCN-558 (5248_H10b) (antibody, V domains shown) VH: QVQLVQSGSEVKKPGTSVKVSCTASGSVFTNYGISWVRQAPGQGLEWMGGIIPLFGAAKYAQKFQGRVTITADESTKTVYMELSRLTSKDTAIYFCAKAPRVYEYYFDQWGQGTPVTVSS VL: EIVMTQFPATLSVSPGERVTLSCRASQSVSNNLAWYQQKPGQPPRLLIYDASTRATGVPAKFSGTGSGTEFTLSISSLQSEDFAVYYCQQYHNWPPSYSFGLGTKLEIK | 3.45
7 | TCN-563 (5237_B21) (antibody, V domains shown) VH: QVQLAQSGAEVKRPGSSVKVSCTASGGIFRKNAISWVRQAPGQGLEWMGGIIAVFNTANYAQKFQGRVKITADESGNTAYMELSSLRSDDTAVYYCASHPKYFYGSGSYPDFWGQGTLVTVSS VL: QSALTQPRSVSGSPGQSVTISCTGSSSDVGASNSVSWYQQHPGKAPKLVIYDVTERPSGVPHRFSGSKSGNTASLTVSGLQPEDEADYFCCAYGGKYLVVFGGGTKVTVL | 3.16
